Screening data, single-dose tests

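Growth of Mycobacterium tuberculosis over 4 days (cholesterol / DPPC medium with tyloxapol); the read-out is not stated. Compounds at 500 µM. Direction is inferred from retests: higher values go with more growth inhibition. Of about 18,000 compounds tested this way, about 900 (5%) reached 50% or more in at least one test.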

Results are given as percent effect.
The controls that fix the scale are not given in the record; negative values are as filed.
The entries come from a sample that favours strong results.

| # | structure | effect |
|---|---|---|
| 1 | `CN1CCOC(CNC(=O)c2ccc(N)nc2)C1` (stereo not given) | 26.5 |
| 2 | `Cc1cc(Cl)ccc1C(=O)Nc1ccc(C(N)=O)nc1` | -3.611 |
| 3 | `COC(=O)CCN1CCN(c2cccc(OC)c2)CC1` | -13.63 |
| 4 | `COc1cccc(-c2cc(N)n(C)n2)c1` | 18.11 |
| 5 | `NCC1Cc2ccccc21` (stereo not given) | 62.61 |
| 6 | `CC(=O)N1CCC(CN)CC1` | -1.579 |
| 7 | `COC(=O)[C@@H]1C[C@@H](O)CN1Cc1ccccc1N(C)C` | 4.646 |
| 8 | `OCC(O)CNc1ccnc2ccc(Br)cc12` (stereo not given) | -40.17 |
| 9 | `Cn1ncc2c(N3CCCCC3CN)ncnc21` (stereo not given) | 2.51 |
| 10 | `CSc1ccc(CC(=O)NCCN2CCCC2=O)cc1` | 8.76 |
| 11 | `CCCC(C)CS(=O)(=O)NCc1ccncc1` (stereo not given) | 59.84 |
| 12 | `CCCn1nnnc1NCc1ccc2c(c1)OCO2` | 22.19 |
| 13 | `COc1cc(CNCC(C)O)cc(Cl)c1OCC(N)=O` (stereo not given) | -0.816 |
| 14 | `CNc1cc(C(=O)N2CC[C@](C)(O)[C@H](C)C2)ccn1` | -9.205 |
| 15 | `CCN1CC(C(N)=O)CC1=O` (stereo not given) | 14.52 |
| 16 | `COc1ncc(C)cc1NC(=O)c1cc[nH]n1` | -11.93 |
| 17 | `Cc1cc(F)ccc1C(=O)Nc1cccc(CO)n1` | -11.53 |
| 18 | `CS(=O)(=O)Cc1ccc(CN)cc1` | 9.766 |
| 19 | `CC(C)Sc1ccccc1NS(=O)(=O)N(C)C` | 52.19 |
| 20 | `Cn1cc([C@@H]2[C@@H](CN)CC(=O)N2C(C)(C)C)cn1` | -6.468 |
| 21 | `CCCn1nnnc1NCc1ccc(C)s1` | 59.92 |
| 22 | `O=C(NCC[S+]([O-])c1ccccc1)N1CCOCC1` (stereo not given) | 5.448 |
| 23 | `Cc1noc(CSCC(=O)NCc2ccccc2F)n1` | 22.66 |
| 24 | `Cc1n[nH]cc1CNC(=O)C(C)N(C)CC(F)(F)F` (stereo not given) | -0.5327 |
| 25 | `CCOc1cccc(CSc2nc(=O)ccn2CC)n1` | 26.69 |
| 26 | `O=C(Cn1ccc(=O)[nH]c1=O)Nc1ccc(Br)cc1` | -5.199 |
| 27 | `Nc1nccc(-c2ccncc2)n1` | -5.786 |
| 28 | `CCc1cc(C(=O)NC(CC)[C@H]2C[C@@H](O)C2)[nH]n1` (stereo not given in full) | 3.295 |
| 29 | `CCOc1ccc(Cl)cc1CCNS(=O)(=O)N(C)C` | 89.58 |
| 30 | `CC(Cc1ccccc1F)C(=O)N1CC[C@H](O)C1` (stereo not given in full) | 2.917 |
| 31 | `CCN(C)C(=O)Nc1ccc(C(=O)OC)c(F)c1` | 67.03 |
| 32 | `NC(=O)CCn1ccc(N)n1` | 5.586 |
| 33 | `CC(C)c1nnc(CN[C@H](CO)C(C)C)o1` | 1.397 |
| 34 | `CCc1nc(C(C)(C)N)[nH]c(=O)c1C` | -7.82 |
| 35 | `Cc1[nH]c2ccc(C(N)=O)cc2c1C` | 90.08 |
| 36 | `CSCc1cccc(C(=O)NC2CCCCNC2=O)c1` (stereo not given) | -16.83 |
| 37 | `Cn1nnnc1SCCNC(=O)c1cc(Cl)ccc1F` | 5.087 |
| 38 | `O=C(CCc1ccco1)Nc1nnc[nH]1` | -9.774 |
| 39 | `CCN(CCn1cccn1)C(=O)c1cc(=O)cc(C)o1` | -8.841 |
| 40 | `O=C(c1ccc[nH]1)N1CCCN(Cc2cscn2)CC1` | -2.91 |
| 41 | `COc1ccc(CCN)cc1S(N)(=O)=O` | 8.842 |
| 42 | `NCCC(=O)N1CCN(c2ccccn2)CC1` | 9.651 |
| 43 | `NS(=O)(=O)N1CCN(c2cc(F)ccc2F)CC1` | 23.47 |
| 44 | `NC(=O)COc1ccccc1CNC1CCCC1` | 4.947 |
| 45 | `NCc1ncn(-c2ccccc2)n1` | 6.51 |
| 46 | `COc1ccccc1OCC(C)CN` (stereo not given) | 77.33 |
| 47 | `N#Cc1cnc2ccsc2c1` | -1.468 |
| 48 | `CC(Sc1nc2ccccc2o1)C(=O)N1CCOCC1` (stereo not given) | 62.57 |
| 49 | `Nc1c[nH]nc1C(=O)NCc1cccc(Cl)c1` | -12.65 |
| 50 | `O=C1NCCCc2[nH]c(Cc3ccncc3)nc21` | -25.04 |
| 51 | `CCO[C@H]1CN(C)C[C@@H]1NC(=O)c1cnn(C(C)C)c1` | 1.216 |
| 52 | `CNC(=O)c1cccc(CN)n1` | -2.139 |
| 53 | `CC(=O)NCc1cn2ccsc2n1` | 3.22 |
| 54 | `CCO[C@H]1CN(Cc2ccccc2C#N)C[C@@H]1O` | 4.033 |
| 55 | `O=S(=O)(CCNc1ccccn1)NCC1CCC1` | 62.91 |
| 56 | `Cc1noc(CN2CCCCC2CCNS(C)(=O)=O)n1` (stereo not given) | -12.07 |
| 57 | `Cc1nc(C(=O)NCc2cccs2)ccc1C#N` | 86.31 |
| 58 | `CCn1nccc1C(=O)N1C[C@@H](CO)[C@H](N(C)C)C1` | -17.19 |
| 59 | `OCC(O)CSCc1ncc(-c2cccc(Cl)c2)o1` (stereo not given) | 49.1 |
| 60 | `COCc1nn(Cc2cccc(C#N)c2)c(=O)o1` | 30.81 |
| 61 | `NCC1CN(C2CC2)C(=O)O1` (stereo not given) | -18.24 |
| 62 | `O=C(NCCC1=CSC2=NCCCN12)c1cnn[nH]1` | 4.228 |
| 63 | `Cc1ccc(F)c(C(=O)N[C@@H]2CNC[C@H]2O)c1Cl` | 51.16 |
| 64 | `Cc1cccc(N(C)CC(O)CN2CCOCC2)n1` (stereo not given) | 1.406 |
| 65 | `O=C1CNCCN1CCc1ccccc1` | 18.49 |
| 66 | `CNCC1(O)CCOCC1` | 22.87 |
| 67 | `CCCc1noc(CNc2ccccc2C(N)=O)n1` | 8.138 |
| 68 | `CN(C)C(=O)CCCS(=O)(=O)CC(=O)N1CCCCC1` | -9.053 |

For reference, 7 entries once more:

* CNc1cc(C(=O)N2CC[C@](C)(O)[C@H](C)C2)ccn1 | -9.205%
* Cc1nc(C(=O)NCc2cccs2)ccc1C#N | 86.31%
* CCN(CCn1cccn1)C(=O)c1cc(=O)cc(C)o1 | -8.841%
* CCN(C)C(=O)Nc1ccc(C(=O)OC)c(F)c1 | 67.03%
* CCOc1cccc(CSc2nc(=O)ccn2CC)n1 | 26.69%
* COCc1nn(Cc2cccc(C#N)c2)c(=O)o1 | 30.81%
* O=C1CNCCN1CCc1ccccc1 | 18.49%

From ChEMBL document CHEMBL3988442, “University of Dundee, Small-Polar-MMV Screening Library” (2021).